Anti-infective test results gathered from many reports (values: NIAID ChemDB through PubChem).

Common to all: tests in culture; species: Mycobacterium smegmatis

Neighbouring rows are from separate reports.

SMILES	strain	read by	read-out	tested at	result
COc1ccc2[nH]c3ccc(CC(=O)O)cc3c2c1	-	resazurin / visual reading / absorbance	MIC99	-	>500 µg/mL
COc1nc2ccc(Br)cc2cc1[C@@H](c1ccccc1)[C@@](O)(CCN(C)C)c1cccc2ccccc12	WILD TYPE	broth dilution	MIC80	-	0.06 µM
CCC1CN(c2c(F)cc3c(=O)c(C(=O)O)cn(C4CC4)c3c2OC)CCN1	KD1991 (GYRA D95Y)	-	MIC99	-	0.47 µg/mL
COC(=O)Cc1ccc2[nH]c3ccc(Br)cc3c2c1	-	resazurin / visual reading / absorbance	MIC99	-	>500 µg/mL
CC1CN(c2c(F)cc3c(=O)c(C(=O)O)cn(C4CC4)c3c2F)CCN1	KD1163 (GRYA+)	-	MIC99	-	0.036 µg/mL
Cc1c(N2CCC(C)(N)CC2)c(F)cn2c(=O)c(C(=O)O)cc(C3CC3)c12.Cl	ATCC114	-	MIC	-	0.05 µg/mL
O=C(O)c1cc(C(F)(F)F)cc2c(=O)nc(N3CCN(CC4CCCCC4)CC3)sc12	GM22	resazurin	MIC99	-	>100 µg/mL
COC(=O)Cc1ccc2[nH]c3cc(Cl)ccc3c2c1	-	resazurin / visual reading / absorbance	MIC99	-	>500 µg/mL
CCC1CN(c2cc3c(cc2F)c(=O)c(C(=O)O)cn3C2CC2)CCN1	KD1995 (GYRA D95H)	-	MIC99	-	3.8 µg/mL
Cc1ccc(-c2ccc3[nH]c4cc(C(C)C(=O)O)ccc4c3c2)cc1	-	resazurin / visual reading / absorbance	MIC99	-	>500 µg/mL
NC1CCN(c2c(F)cc3c(=O)c(C(=O)O)cn(C4CC4)c3c2F)C1	ATCC 19420	-	MIC	-	0.06 µg/mL
CC[n+]1c(-c2ccccc2)c2cc(N)ccc2c2ccc(N)cc21	PMN1 LFR	-	MIC	-	32 µg/mL
COc1c(N2CCNC(C)C2)c(F)cc2c(=O)c(C(=O)O)cn(C3CC3)c12	ATCC 19420	-	MIC	-	0.06 µg/mL
Cc1nn(-c2ccccc2)c2c1C(c1cn(-c3ccccc3)nc1-c1ccc(Cl)cc1)C1=C(NC(C)(c3cc(O)ccc3Cl)NC1=O)O2	NCIM 5138	agar diffusion / agar	zone	0.1 mg/mL	1.5 mm
COc1ccccc1-c1ccc2[nH]c3cc(C(C)C(=O)O)ccc3c2c1	-	resazurin / visual reading / absorbance	MIC99	-	>500 µg/mL
Cc1c(N2CCC(n3cccc3)CC2)c(F)cn2c(=O)c(C(=O)O)cc(C3CC3)c12	ATCC114	-	MIC	-	3.1 µg/mL
COc1c(N2CCNC(C)C2)c(F)cc2c(=O)c(C(=O)O)cn(-c3ccc(F)cc3F)c12	ATCC 19420	-	MIC	-	4 µg/mL
N#CC(C#N)=NNc1cccc(Cl)c1	PSB51 LFR	-	MIC	-	30 µg/mL
O=C(O)Cc1ccc2c(c1)[nH]c1ccc(Cl)cc12	-	resazurin / visual reading / absorbance	MIC99	-	500 µg/mL
CC1CN(c2c(F)cc3c(=O)c(C(=O)O)cn(C4CC4)c3c2F)CC(C)N1	KD1998 (GYRA D95N)	-	MIC99	-	1.3 µg/mL
COCOCC1CCCN(c2c(F)cn3c(=O)c(C(=O)O)cc(C4CC4)c3c2C)C1.Cl	ATCC114	-	MIC	-	3.1 µg/mL
C[C@H]1NCc2cc(-c3ccc4c(=O)c(C(=O)O)cn(C5CC5)c4c3OC(F)F)ccc21	A24001	-	MIC	-	0.13 µg/mL
COc1ccc(-c2nn(-c3ccccc3)cc2C2C3=C(NC(C)(c4cc(O)ccc4Cl)NC3=O)Oc3c2c(C)nn3-c2ccccc2)cc1	NCIM 5138	agar diffusion / agar	zone	1 mg/mL	5.2 mm
O=C(O)Cc1ccc2[nH]c3ccc(Br)cc3c2c1	-	resazurin / visual reading / absorbance	MIC99	-	>250 µg/mL
COc1c(N2CCC(N)C2)c(F)cc2c(=O)c(C(=O)O)cn(C3CC3)c12	ATCC 19420	-	MIC	-	0.06 µg/mL
C[C@H]1COC2(CCN(c3nc(=O)c4cc(C(F)(F)F)cc(C(=O)O)c4s3)CC2)O1	MN47	resazurin	MIC99	-	25 µg/mL
COC(=O)Cc1ccc2[nH]c3ccccc3c2c1	-	resazurin / visual reading / absorbance	MIC99	-	>500 µg/mL
COc1c(N2CCNC(C)C2)c(F)cc2c(=O)c(C(=O)O)cn(C3CC3)c12	KD1995 (GYRA D95H)	-	MIC99	-	0.46 µg/mL
Cc1c(N2CCC(C(C)N)C2)c(F)cn2c(=O)c(C(=O)O)cc(C3CC3)c12.Cl	ATCC114	-	MIC	-	0.01 µg/mL
CCN1CCN(c2c(F)cc3c(=O)c(C(=O)O)cn(C4CC4)c3c2C(F)(F)F)CC1	ATCC 19420	-	MIC	-	2 µg/mL
Cc1nn(-c2ccccc2)c2c1C(c1cn(-c3ccccc3)nc1-c1ccc(F)cc1)C1=C(NC(C)(c3cc(O)c(I)cc3Cl)NC1=O)O2	NCIM 5138	agar diffusion / agar	zone	0.1 mg/mL	5.6 mm
CC[C@@H](CO)NCCN[C@@H](CC)CO	ATCC 700084	broth dilution	MIC99	-	<0.2 µg/mL
CC1CN(c2cc3c(cc2F)c(=O)c(C(=O)O)cn3C2CC2)CCN1	KD1990 (GYRA D95A)	-	MIC99	-	1.2 µg/mL
Cc1c(N2CCC(F)C2)c(F)cn2c(=O)c(C(=O)O)cc(C3CC3)c12	ATCC114	-	MIC	-	0.78 µg/mL

Again, the opening 5 rows:

{"SMILES": "COc1ccc2[nH]c3ccc(CC(=O)O)cc3c2c1", "read by": "resazurin / visual reading / absorbance", "read-out": "MIC99", "result": ">500 µg/mL"}
{"SMILES": "COc1nc2ccc(Br)cc2cc1[C@@H](c1ccccc1)[C@@](O)(CCN(C)C)c1cccc2ccccc12", "strain": "WILD TYPE", "read by": "broth dilution", "read-out": "MIC80", "result": "0.06 µM"}
{"SMILES": "CCC1CN(c2c(F)cc3c(=O)c(C(=O)O)cn(C4CC4)c3c2OC)CCN1", "strain": "KD1991 (GYRA D95Y)", "read-out": "MIC99", "result": "0.47 µg/mL"}
{"SMILES": "COC(=O)Cc1ccc2[nH]c3ccc(Br)cc3c2c1", "read by": "resazurin / visual reading / absorbance", "read-out": "MIC99", "result": ">500 µg/mL"}
{"SMILES": "CC1CN(c2c(F)cc3c(=O)c(C(=O)O)cn(C4CC4)c3c2F)CCN1", "strain": "KD1163 (GRYA+)", "read-out": "MIC99", "result": "0.036 µg/mL"}

Blank or dashed fields: not listed here. Zones are inhibition diameters on agar. MIC50, MIC90 and the like: level of inhibition, or share of isolates inhibited.